A mixed list of measured activities; the numbers were collected in NIAID ChemDB.

Common to all: target-level tests; organism: Hepatitis C virus; target: NS5B polymerase; read-out: IC50

Two numbers with a dash give a range or band.

| SMILES | strain | result |
|---|---|---|
| CCSc1nc(N2CCN(C(=O)c3ccccc3)CC2)cc(N(C)c2ccc(N(CC)CC)cc2)n1 | - | 3 µg/mL |
| O=C(Cn1nc(C(=O)O)cc1C(=O)NC1C2CC3CC(C2)CC1C3)N[C@H]1CCCCC1OCc1ccccc1 | - | ≥1 µM |
| O=C(N[C@@H](Cc1c[nH]c2ccc(O)cc12)C(=O)O)c1ccc2c(c1)nc(-c1ccoc1)n2[C@@H]1C2CCC23CC3[C@@H]1CO | - | 1–5 µM |
| O=C(N[C@@H](Cc1c[nH]c2ccccc12)C(=O)O)c1ccc2nc(-c3ccc(F)cc3)c(-c3ccc(F)cc3)nc2c1 | - | <10 µM |
| O=C(O)/C(=C/c1ccc(-c2ccccc2)o1)NC(=O)c1cc(O)ccc1O | - | <10 µM |
| O=C(O)COc1ccc(CC(NC(=O)c2ccc3c(c2)nc(-c2ccoc2)n3C2CCCCC2)C(=O)O)cc1Cl | - | <1 µM |
| CCC[C@]1(CC(=O)O)OCCc2c1[nH]c1c(C)ccc(C#N)c21 | A5 genotype 1A | 1.4 µM |
| COc1cc(C(=O)N2[C@@H](c3ncc(C)s3)[C@@H](c3cnccn3)C[C@@]2(Cc2ccsn2)C(=O)O)ccc1C(C)(C)C | genotype 1b | <0.1 µM |
| O=C(O)COc1ccccc1CN1CCC(CNC(=O)c2ccc3c(c2)nc(-c2ccoc2)n3C2CCCCC2)C1 | - | 10–25 µM |
| O=C(Cn1nc(C(=O)O)nc1C(=O)N[C@H]1CCCC[C@@H]1OCC1CCCCC1)N[C@H]1CCCC[C@@H]1OCc1ccccc1 | - | 0.1–1 µM |
| COc1cc(C(=O)N2[C@@H](c3nccs3)[C@@H](c3cnccn3)C[C@@]2(Cc2nccs2)C(=O)O)ccc1C(C)(C)C | genotype 1b | <0.1 µM |
| O=C(N[C@H](C(=O)O)c1c[nH]c2ccc(O)cc12)c1ccc2c(c1)nc(/C=C/c1cc(O)cc(O)c1)n2C1CCCCC1 | - | 1–5 µM |
| COc1cc(C(=O)N2[C@@H](c3nccs3)[C@@H](c3cnccn3)C[C@@]2(Cc2cscn2)C(=O)O)ccc1C(C)(C)C | genotype 1b | <0.1 µM |
| O=C(O)c1ccc(-c2nc3cc(C(=O)N[C@H](C(=O)O)c4c[nH]c5ccc(O)cc45)ccc3n2C2CCCCC2)cc1 | - | 1–5 µM |
| CCCCOC(=O)c1ccc(CCCC)nc1N(C)c1ccc(N2CCOCC2)cc1 | - | 3 µg/mL |
| CN(C(=O)Cn1nc(C(=O)NCCc2ccccc2)cc1C(=O)N[C@H]1CCCC[C@@H]1OCc1ccccc1)[C@H]1CCCC[C@@H]1OCc1ccccc1 | - | 0.1–1 µM |
| CC1=C(C(=O)OCc2ccc3ncsc3c2)CNC(=S)N1 | - | 0.5 µM |
| Cc1ccc(C(=O)N/C(=C\c2ccc(-c3ccccc3Cl)s2)C(=O)O)cc1 | - | >30 µM |
| COc1cc(C(=O)N2[C@@H](c3nccs3)[C@@H](c3cnccn3)C[C@@]2(Cc2ccccc2)C(=O)O)ccc1C(C)(C)C | genotype 1b | 0.1–0.5 µM |
| CCNC(=O)c1cc(C(=O)N[C@H]2CCCC[C@@H]2OCc2ccccc2)n(CC(=O)Nc2ccc3c(c2)OCO3)n1 | - | ≥1 µM |
| COc1ccc(CNC(=O)c2ccc3c(c2)nc(-c2ccoc2)n3C2CCCCC2)cc1OC | - | <1 µM |
| O=C(O)/C=C/c1ccc(NC(=O)C2(NC(=O)c3ccc4c(c3)nc(-c3ccc[nH]3)n4C3CCC3)CCCC2)cc1 | - | 0.5–5 µM |
| O=C(O)COc1ccc([C@H](NC(=O)c2ccc3c(c2)nc(-c2ccoc2)n3C2CCCCC2)C(=O)O)cc1 | - | <1 µM |
| Cc1ccc(C(=O)N/C(=C\c2ccc(-c3ccccc3)o2)C(=O)O)cc1 | - | >30 µM |
| O=C(NC(C(=O)O)C(=O)O)c1ccc2c(c1)nc(-c1ccccn1)n2C1CCCCC1 | - | 1–5 µM |
| O=C(Cn1nc(NS(=O)(=O)c2ccccc2)cc1C(=O)N[C@H]1CCCC[C@@H]1OCc1ccccc1)N[C@H]1CCCC[C@@H]1OCc1ccccc1 | - | 0.05–0.1 µM |
| C[C@@H](NC(=O)c1ccc2c(c1)nc(-c1ccoc1)n2C1CCCCC1)C(=O)Nc1ccc(CCC(=O)O)cc1 | - | 0.5–5 µM |
| COC(=O)[C@H](Cc1c[nH]c2ccccc12)NC(=O)c1ccc2nc(-c3ccc(F)cc3)c(-c3ccc(F)cc3)nc2c1 | - | >50 µM |
| N#Cc1ccccc1-c1nc2cc(C(=O)N[C@H](C(=O)O)c3c[nH]c4ccc(O)cc34)ccc2n1C1CCCCC1 | - | 1–5 µM |
| O=C(Cn1nc(C(=O)NCc2ccncc2)cc1C(=O)N[C@H]1CCCC[C@@H]1OCc1ccccc1)Nc1ccccc1OCc1ccccc1 | - | 0.1–1 µM |
| CC(=O)Nc1ccc(C(=O)N/C(=C\c2ccc(-c3ccccc3Cl)s2)C(=O)O)cc1 | - | <10 µM |
| CC(C)Nc1nc(C[C@H](Cc2ccc(OCC(=O)O)cc2)NC(=O)c2ccc3c(c2)nc(-c2ccoc2)n3C2CCCCC2)cs1 | - | 1–5 µM |
| O=C(O)/C=C/c1ccc(NC(=O)C2(NC(=O)c3ccc4c(c3)nc(-c3cccs3)n4C3C[C@H]4CC[C@@H]3C4)CCCC2)cc1 | - | <0.5 µM |
| CCCCSc1nc(Nc2ccc(N(CC)CC)cc2)cc(N2CCN(C(=O)c3ncccn3)CC2)n1 | - | 3 µg/mL |
| O=C(N[C@H](C(=O)O)c1c[nH]c2ccc(O)cc12)c1ccc2c(c1)nc(-c1cccc(=O)[nH]1)n2C1CCCCC1 | - | 1–5 µM |
| CCSc1nc(Nc2ccc(N(CC)CC)cc2)cc(N2CCN(C(=O)c3ncccn3)CC2)n1 | - | 3 µg/mL |
| COc1cc(C(=O)N2[C@@H](c3nccs3)[C@@H](c3cnccn3)C[C@@]2(Cn2cccn2)C(=O)O)ccc1C(C)(C)C | Genotype 1A | <0.15 µM |
| CC1=C(C(=O)OCCCc2ccsc2F)C(CO)NC(=S)N1 | - | 6.3 µM |
| CN(C)C(=O)c1ccc2c(c1)nc(-c1ccoc1)n2C1CCCCC1 | - | 5–10 µM |
| CC1=C(C(=O)OCCCSc2nc3ccccc3o2)C(CF)NC(=S)N1 | - | 8 µM |
| Cc1nc2cc(C(=O)N[C@@H](Cc3c[nH]c4cc(O)ccc34)C(=O)O)ccc2n1C1CCCCC1 | - | 10–25 µM |
| COC(=O)[C@H](Cc1c[nH]c2ccccc12)NC(=O)c1ccc2nc(-c3ccccc3)c(-c3ccccc3)nc2c1 | - | >50 µM |
| CN(C(=O)Cc1ccc2c(c1)nc(-c1ccoc1)n2C1CCCCC1)[C@H](Cc1ccc(O)cc1)C(=O)O | - | 10–25 µM |
| O=C(O)c1ccc2nc(-c3ccccn3)c(-c3ccccn3)nc2c1 | - | >50 µM |
| CCOC(=O)[C@H](Cc1ccc(-c2nn[nH]n2)cc1)NC(=O)c1ccc2c(c1)nc(-c1ccoc1)n2C1CCCCC1 | - | <1 µM |
| O=C(N[C@@H](Cc1c[nH]c2ccccc12)C(=O)O)c1ccc2nc(-c3ccccc3)c(-c3ccccc3)nc2c1 | - | 10–50 µM |
| COc1cc(Cl)cc(COC(=O)C2=C(C)NC(=S)NC2)c1 | - | 0.4 µM |
| O=C(N[C@@H](Cc1c[nH]c2ccc(O)cc12)C(=O)O)c1ccc2c(c1)nc(-c1ccoc1)n2C1CC2CCC1C2 | - | <1 µM |
| Cc1oc(-c2cccc(NC(=O)[C@@H](C)NC(=O)c3ccc4c(c3)nc(-c3ccoc3)n4C3CCCCC3)c2)cc1C(=O)O | - | 0.5–5 µM |
| O=C(N[C@@H](Cc1c[nH]c2ccc(O)cc12)C(=O)O)c1ccc2nc(-c3ccc(F)cc3)c(-c3ccc(F)cc3)nc2c1 | - | <10 µM |
| O=C(O)COc1ccc2[nH]cc(C[C@@H](NC(=O)c3ccc4c(c3)nc(-c3ccoc3)n4C3CCCCC3)C(=O)O)c2c1 | - | <1 µM |

ICn is the concentration giving n% inhibition. An empty or dashed field is not shown. Neighbouring rows are from separate reports.